# Test system: SAP
# Experiment: SAP bioresponsive degradation assay
# Type: biochemical
# Conditions: 100 nM SAP, 1 μM substrate, pH 3.3, 37° C., 3 hours
row,Substance,Degradation of peptide substrate by SAP
1,Pro-arg-arg-ile-sys-val (PRRICV) [LAR-7048],No degradation
2,val-phe-phe-arg-arg-gln-thr-ala (VFFRRQTA) [LAR-7047],No degradation

# Reference: US8962697B2 (Interface Biologics Inc., priority 2006, dated 2015)
